Laboratory results published in PMC6134199.
The exact form of at least one protein or probe is not confirmed. Protein sequences can lack the tags named with them.

Target: T1, SlyA (Escherichia coli K-12 W3110 type A) (UniProt P0A8W2)
T1 sequence (looked up, limits assumed): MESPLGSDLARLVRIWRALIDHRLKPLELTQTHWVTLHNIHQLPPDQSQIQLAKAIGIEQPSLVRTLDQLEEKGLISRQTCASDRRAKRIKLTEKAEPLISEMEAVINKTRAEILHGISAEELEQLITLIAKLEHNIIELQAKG
Assay: EMSA
Conditions: 0.5 pmol each FITC probe + 20 pmol TF (Fig 4: 0-8 pmol) in 10 ul DNA-binding buffer (composition not given, ref 38), 37 C, 20 min, PAGE with mixed probes, recombinant protein, protein details: His, label: FITC

“CGTACCGACCCCATATCGTGACGCCGCTGCTGTTGTACTAACCAAACAGGTTCCCCCTGCCATTCGCCGATTTGTAGTGCGCGCTGACCCACAAGATCGAAATTTGCCGCTTCGCCATATGGCAATTCTCCCTTCGGCAACCATAATTTTTGTTCATGGCTGACGACCCACCAGCCGTGATCTAATTTTTCAATTATACGATCCATAGCTCTTGCACTACCTTTGCATCACTGGCATGTTTAACATGGTTTTTACATTTCTCACTGAGCAGTTTTTGAATACAAACTTGCGGAGTCAATC (double strand) [rsd promoter probe (300 bp)]”: binds (10 mM ppGpp, increased binding); binds (no effector).
“ATTATAAAGATTTGTAAATATAACCGTCTCCGGTATGTTGCCTGAGGCGGTTTTTTTGTCTCTAACGTGCGGAAAAATTTGTTCCTCTTCACATTTTTTGTACAACCGACATGCCCGTGTAGCTCACAAATATGACAGTGGCGTGAATTTTGCGCATTGACGGCAGTTATGATTCGCGGTATTGCTTAACTGTGATTGCACATTTAGTAATCACTGTTTTCTTTTCCACCAGAAACCAGTATGAGGGAAACGAGGC (double strand) [rmf promoter probe (256 bp)]”: binds (10 mM ppGpp, increased binding); binds (no effector).
